{
  "source": "patent US20230405106A1",
  "target": "chimeric ACE2-mFc protein (UniProt Q9BYF1)",
  "data": [
    {"substance": "hybrid HBcAg-CRBDH6-H nanoparticles (from UniProt P0DTC2 328-533; P03146 1-183)", "values": [
      {"measurement": "Kd", "result": 0.0294, "unit": "nM"}
    ]}
  ]
}
